Data as given in publication PMC7806871 (2021).

Amino acid sequences for entries named in this document (tags omitted). Residues count along the entry.
UniProt O05442, 648-846 limits assumed: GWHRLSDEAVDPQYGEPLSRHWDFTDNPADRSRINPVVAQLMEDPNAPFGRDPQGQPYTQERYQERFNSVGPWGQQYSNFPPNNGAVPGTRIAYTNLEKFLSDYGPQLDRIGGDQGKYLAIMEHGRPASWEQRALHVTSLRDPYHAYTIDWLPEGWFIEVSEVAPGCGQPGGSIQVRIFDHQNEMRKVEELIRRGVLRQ

Molecular target: TNT (tuberculosis necrotizing toxin), rTNT (Mycobacterium tuberculosis, UniProt O05442)
Assay: NAD+ hydrolysis, NADH fluorescence assay
Details: 75 nM TNT, 200 µM NAD+

Compound: NC(=O)c1ccc[n+]([C@@H]2O[C@H](COP(=O)(O)OP(=O)(O)OC[C@H]3O[C@@H](n4cnc5c(N)ncnc54)[C@H](O)[C@@H]3O)[C@@H](O)[C@H]2O)c1
- NAD+ hydrolysis, NADH fluorescence assay: rTNT purified from IFT-TNT complex, but not from inclusion bodies, could hydrolyse NAD^+
